The values below come from article PMC3663898 (Antiviral research, 2013).

For the data set the following is noted: rats, single oral dose 25, 50, 100 or 200mg/kg, 7-day observation.

Each structure is given as a SMILES string.

For the molecule `OC[C@@H]1[C@@H](O)[C@H](O)[C@@H](O)CN1CCCCCCOc1cc(F)ccc1F` [IHVR11029, (2R,3R,4R,5S)-1-(6-(2,5-difluorophenoxy)hexyl)-2-(hydroxymethyl)piperidine-3,4,5-triol], the “survival in single oral dose MTD study” value is listed as “survived”.
